Source: patent US11395816B2, “Corroles for treating human cytomegalovirus infections” (UNIVERSITE DE BOURGOGNE, priority 2017, dated 2022)
The index is printed as in the source, without its formula.

Test system: hCMV
Test: hCMV infection assay in ARPE-19 cells (infection level and DNA replication by high content microscopy)
Assay type: cell-based, human cytomegalovirus
Description: ARPE-19 human retinal pigmented epithelium cells were used for hCMV infection assay.
Cells were grown in DMEM without phenol red (Sigma-Aldrich) 10% SVF, Pen-strep, 1× sodium pyruvate, 1× Glutamax.
hCMV infection was carried out on ARPE-19 cells seeded in 96 wells plate, in duplicate at one or two MOI (multiplicity of infection) and 7 concentrations of FNO2Cor, TPFCor, TpNO2Cor. • D0: MRC5/ARPE-19 cells seeded at 6 k per well in Corning Glass Bottom 96 well plates in 200 μL of DMEM without phenol red. • D1: cells were treated with FNO2Cor, TpNO2Cor, TPFCor (from 50 to 0.1 μM by two fold dilutions) in duplicate for the toxicity study. • D3: ARPE-19 cells were treated with Ganciclovir, FNO2Cor, TpNO2Cor, TPFCor (from 5 to 0.07 μM or from 10 to 0.15 μM by two fold dilutions) and were infected at different MOI in duplicate: MOI 10 or 2 for ARPE-19 cells. • D7: ARPE-19 cells at MOI 10 4 d post-infection were fixed with Formalin 10 min at room temperature. Cells were washed with 200 μL PBS and 100 μL PBS/Hoechst® 33342 ( 1/1000) per well. 96 well plates were kept at 4° C. in the dark until data acquisition Image acquisition and analysis for high content quantification was performed on a Thermo Cellomics Arrayscan™ VTI microscope using a modified compartmental analysis algorithm. • D13: ARPE19 cells at MOI 2 10 days post-infection were fixed and image acquisition and analysis were performed as previously described.
On 4 d and 10 d post-infection (2 post-infection times), data acquisition per virus and cell line was done by high content microscopy to calculate infection level and DNA replication according to compound concentration.
Compounds FNO2Cor, TPFCor, TpNO2Cor and anti-hCMV drug Ganciclovir were assessed at 8 different concentrations in ARPE-19 cell culture on 4 days post-infection (FIGS. 2A, 2B) or on 10 days post-infection (FIGS. 3A, 3B) to evaluate their activity for inhibiting hCMV infection and their capacity for inhibiting hCMV replication in ARPE-19 cells.

## O=[N+]([O-])c1ccc(-c2c3nc(c4ccc([nH]4)c(-c4ccc([N+](=O)[O-])cc4)c4ccc([nH]4)c(-c4ccc([N+](=O)[O-])cc4)c4ccc2[nH]4)C=C3)cc1 [TpNO2Cor, 5,10,15-Tris(4-nitrophenyl)corrole, reference compound]
4 d PI, Table III
  Selectivity index (infection inhibition): 6.28
  Selectivity index (replication inhibition): 3.0
Table V, head prints 4 d PI, text says 10 d PI
  Selectivity index (infection inhibition): 13.93
